Screening data, single-dose tests

The values are deposited in ChEMBL (CHEMBL3988442, “University of Dundee, Small-Polar-MMV Screening Library” (2021)).

Mtb cholesterol medium: 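Growth of Mycobacterium tuberculosis over 4 days (cholesterol / DPPC medium with tyloxapol); the read-out is not stated. Tested at 500 µM. The record gives no direction; compounds that gave an IC50 in retests scored well above the rest, so higher reads as more growth inhibition. Of about 18,000 compounds tested this way, about 900 (5%) reached 50% or more in at least one test.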
Mtb glucose medium: 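Growth of Mycobacterium tuberculosis over 3 days (7H9 medium with glucose and tyloxapol); the read-out is not stated. Tested at 500 µM. The record gives no direction; compounds that gave an IC50 in retests scored well above the rest, so higher reads as more growth inhibition. Of about 18,000 compounds tested this way, about 1,400 (7.9%) reached 50% or more in at least one test.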

Results are given as percent effect.
The controls that fix the scale are not given in the record; negative values are as filed.
This is part of a subset picked to be rich in strong results.
A dash means the value is not listed here; it may have been measured.

| compound | Mtb cholesterol medium | Mtb glucose medium |
|---|---|---|
| `CC(C)(C)OC(=O)N1CCN2C(=O)NCC2C1` (centres undefined) | -17.81 | - |
| `C[S+]([O-])CCNC(=O)NC1CCCCC1` (centres undefined) | 11.67 | - |
| `COCCCN1CCC(Nc2ccc(Cl)cn2)CC1` | 5.566 | 28.16 |
| `C[C@@H]1CN(Cc2ccccc2)C[C@@H](C)C1=O` | - | 7.801 |
| `NC(=O)NC(=O)COC(=O)c1ccccc1Br` | - | 9.338 |
| `COc1cccc(NC(=O)C2CCCN(C)C2)c1` (centres undefined) | 17.05 | - |
| `N[C@@H]1CC[C@@H]1NC(=O)Cc1c[nH]c2ccccc12` | - | 47.68 |
| `COC1CCN(C(=O)CCc2ccc(F)cc2F)C1` (centres undefined) | 63.68 | 74.93 |
| `CC(C)C(N)CCN(C)C(=O)CC(F)(F)F` (centres undefined) | - | -4.46 |
| `CC(=O)CN1CCCc2ccccc2C1` | - | 38.11 |
| `COc1ccnc(N2CC[S+]([O-])CC2)n1` | -0.0183 | 10.98 |
| `COc1cc(C(C)O)cc(OC)c1O` (centres undefined) | -7.291 | - |
| `CCC(C)Oc1cccc(NC(=O)NCCO)c1` (centres undefined) | - | 37.84 |
| `Cc1ccc(F)c(CN2CC[C@H](N)C2)c1` | 63.42 | 81.63 |
| `Cc1ccc(Cl)cc1NC(=O)CN1CCN(C)CC1` | 35.33 | 41.34 |
| `COC(=O)CCCC(=O)N1CCCc2ccc(F)cc21` | 48.01 | 56.35 |
| `O=C(CNC(CO)C1CC1)Nc1ccccc1` (centres undefined) | - | -10.25 |
| `COC[C@@H]1CN(C(=O)c2cccc(F)c2)C[C@H]1C(N)=O` | - | 7.677 |
| `CCN(CC)S(=O)(=O)c1csc(C(N)=O)c1` | - | 3 |
| `CC(C)n1nnnc1SCC(O)C(F)(F)F` (centres undefined) | 30.82 | 22.62 |
| `CNS(=O)(=O)c1cccc(C(=O)Nc2cccnc2)c1` | - | 2.763 |
| `COc1ccc(Cl)c(N2CCNCC2)c1` | - | 45.6 |
| `CCOC(=O)C(O)c1cc(Br)c2c(c1)OCO2` (centres undefined) | - | 60.14 |
| `COc1cc(CN)ccc1O` | 19.58 | - |
| `CS(=O)(=O)c1ccc(CN2CCC(O)(CO)CC2)cc1` | - | -7.909 |
| `CCN(CCC(N)=O)Cc1cccc2c1OCO2` | - | 61.04 |
| `Cc1c([C@@H]2OCC[C@H]2N)cnn1C` | - | 6.005 |
| `CC1(NS(=O)(=O)c2ccc(Cl)cc2F)CCS(=O)(=O)C1` (centres undefined) | - | 16.81 |
| `C1CN(C2CNC2)CCO1` | - | 0.9005 |
| `COc1ccc(-n2c(C)n[nH]c2=O)cc1Cl` | - | 7.863 |
| `CC(CNC(=O)NC1CCCC1)N1CCOCC1` (centres undefined) | 14.22 | - |
| `Cn1cc(CN(CCC#N)CCN2CCOCC2)cn1` | 6.829 | - |
| `CCn1cc(CN)cn1` | -13.88 | - |
| `COc1cc(CN2CCCNCC2)cc2c1OCO2` | - | 14.7 |
| `CNCCCNC(=O)CCc1ccc(F)cc1` | - | 65.92 |
| `COCCCNCc1ccc(OC)cc1` | - | 11.15 |
| `CCc1nn(C)c(CC)c1S(=O)(=O)N(C)C(C)CN` (centres undefined) | - | 7.322 |
| `CC[C@H](N)C(=O)N(C)CCOc1cccc(Cl)c1` | 49.34 | 63.68 |
| `CN(CC1CC1)c1ccc(S(C)(=O)=O)cc1S(C)(=O)=O` | -10.06 | - |
| `Cc1nc(CN2CC3(CCNCC3)CCC2=O)cs1` | - | 5.85 |
| `CC(C)CNC(=O)C1CCCO1` (centres undefined) | - | 9.971 |
| `CN(C)C(=O)CN(C)c1ncc(C(F)(F)F)cc1Cl` | 14.72 | 31.5 |
| `Cc1c(C(=O)NCC(N)=O)oc2ccc(Cl)cc12` | - | 52.57 |
| `CCN(Cc1cc2cc(C)ccc2nc1O)C(C)=O` | - | 40.82 |
| `C=C(C)COc1c(Cl)cc(C(N)=O)cc1OC` | 78.29 | 83.29 |
| `CN(C)CCSc1nnnn1-c1ccccc1` | 3.918 | 21.16 |
| `CCNc1nnc(SC(C)C)s1` | 90.82 | 84.03 |
| `O=C(NCc1cccc(OCC(F)F)n1)C1CCCN1` (centres undefined) | -10.91 | - |

For reference, 6 entries once more:

| compound | Mtb cholesterol medium | Mtb glucose medium |
|---|---|---|
| `CC1(NS(=O)(=O)c2ccc(Cl)cc2F)CCS(=O)(=O)C1` (centres undefined) | - | 16.81 |
| `COc1ccc(-n2c(C)n[nH]c2=O)cc1Cl` | - | 7.863 |
| `Cc1c(C(=O)NCC(N)=O)oc2ccc(Cl)cc12` | - | 52.57 |
| `N[C@@H]1CC[C@@H]1NC(=O)Cc1c[nH]c2ccccc12` | - | 47.68 |
| `CCN(CCC(N)=O)Cc1cccc2c1OCO2` | - | 61.04 |
| `COc1ccnc(N2CC[S+]([O-])CC2)n1` | -0.0183 | 10.98 |